What was measured:
Assay type in all cases: cell-based, Dengue virus
[1] = tested on: DENV-2 16681 strain labeled with eGFP; assay: DENV-2 antiviral assay (eGFP fluorescence read-out in Vero cells); conditions: SI=CC50/EC50, DENV-2 antiviral assay
Procedure, shortened: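 Vero cells (2500/well) pre-plated with compound (9-step 5-fold series), infected next day with eGFP-labeled DENV-2 16681 at MOI 0.5 in MEM with 2% FCS; 3 days at 37° C. eGFP fluorescence read at 488 nm; inhibition versus virus and cell controls, EC50 by linear interpolation.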

DENV-2 strain 16681 = assay: Tetravalent RT-qPCR assay Protocol A, serotype 2; conditions: RT-qPCR serotype 2 16681
Experimental: (§1) The antiviral activity of the compounds of the invention was tested against DENV-1 strain TC974#666 (NCPV), DENV-2 strain 16681, DENV-3 strain H87 (NCPV) and DENV-4 strains H241 (NCPV) and EDEN (SG/06K2270DK1/2005; GenBank accession number QG398256) in a RT-qPCR assay. Therefore, Vero cells were infected with either DENV-1, or -2, or -3, or -4 in the presence or absence of test compounds. At day 3 post-infection, the cells were lysed and cell lysates were used to prepare cDNA of both a viral target (the 3′UTR of DENV; Table 2) and a cellular reference gene (β-actin, Table 2). Subsequently, a duplex real time PCR was performed on a Lightcycler480 instrument. The generated Cp value is inversely proportional to the amount of RNA expression of these targets. Inhibition of DENV replication by a test compound results in a shift of Cp's for the 3′UTR gene. On the other hand, if a test compound is toxic to the cells, a similar effect on β-actin expression will be observed. The comparative ΔΔCp method is used to calculate EC50, which is based on the relative gene expression of the target gene (3′UTR) normalized with the cellular housekeeping gene (β-actin). In addition, CC50 values are determined based on the Cp values acquired for the housekeeping gene β-actin.
(§2) The culture medium consisted of minimal essential medium supplemented with 2% of heat-inactivated fetal calf serum, 0.04% gentamycin (50 mg/mL) and 2 mM of L-glutamine. Vero cells, obtained from ECACC, were suspended in culture medium and 75 μL/well was added in 96-well plates (10000 cells/well), which already contain the antiviral compounds. […] In addition, each plate contains wells which are assigned as virus controls (containing cells and virus in the absence of compound) and cell controls (containing cells in the absence of virus and compound). Once the cells were added in the plates, the plates were incubated in a fully humidified incubator (37° C., 5% CO2) until the next day. Dengue viruses serotype-1, 2, 3 and 4 were diluted in order to obtain a Cp of ˜22-24 in the assay. Therefore, 25 μL of virus suspension, was added to all the wells containing test compound and to the wells assigned as virus control. In parallel, 25 μL of culture medium was added to the cell controls. Next, the plates were incubated for 3 days in a fully humidified incubator (37° C., 5% CO2). After 3 days, the supernatant was removed from the wells and the cells were washed twice with ice-cold PBS (−100 μL). The cell pellets within the 96-well plates were stored at −80° C. for at least 1 day. Next, RNA was extracted using the Cells-to-CT™ lysis kit, according to the manufacturer's guideline (Life Technologies). The cell lysates can be stored at −80° C. or immediately used in the reverse transcription step.
(§3) In preparation of the reverse transcription step, mix A (table 3A) was prepared and 7.57 μL/well was dispensed in a 96-well plate. After addition of 5 μL of the cell lysates, a five minute denaturation step at 75° C. was performed (table 3B). Afterwards, 7.43 μL of mix B was added (table 3C) and the reverse transcription step was initiated (table 3D) to generate cDNA.
(§4) Finally, a RT-qPCR mix was prepared, mix C (table 4A), and 22.02 μL/well was dispensed in 96-well LightCycler qPCR plates to which 3 μL of cDNA was added and the qPCR was performed according to the conditions in table 4B on a LightCycler 480.
(§5) Using the LightCycler software and an in-house LIMS system, dose response curves for each compound were calculated and the half maximal effective concentration (EC50) and the half maximal cytotoxic concentration (CC50) were determined (Tables 5-8).

DENV-4 strain H241 = assay: Tetravalent RT-qPCR assay Protocol A, serotype 4 H241; conditions: RT-qPCR serotype 4 H241
Experimental: as §1, §2, §3, §4, §5

DENV-1 strain TC974#666 = assay: Tetravalent RT-qPCR assay Protocol A, serotype 1; conditions: RT-qPCR serotype 1 TC974#666
Experimental: as §1, §2, §3, §4, §5

DENV-3 strain H87 = assay: Tetravalent RT-qPCR assay Protocol A, serotype 3; conditions: RT-qPCR serotype 3 H87
Experimental: as §1, §2, §3, §4, §5

[2] = tested on: DENV-4 strain EDEN (SG/06K2270DK1/2005); assay: Tetravalent RT-qPCR assay Protocol A, serotype 4 EDEN; conditions: RT-qPCR serotype 4 EDEN
Experimental: as §1, §2, §3, §4, §5

## COc1cc(NC(C(=O)c2c[nH]c3cc(F)ccc23)c2ccc(F)cc2OCCO)cc(S(C)(=O)=O)c1 (single isomer, unassigned) [Compound 1A, 1-(6-fluoro-1H-indol-3-yl)-2-(4-fluoro-2-(2-hydroxyethoxy)phenyl)-2-((3-methoxy-5-(methylsulfonyl)phenyl)amino)ethanone]
[1]
  SI: 9210
DENV-2 strain 16681
  SI: 5790
DENV-4 strain H241
  SI: 9.7
DENV-1 strain TC974#666
  SI: 755
DENV-3 strain H87
  SI: 94
[2]
  SI: 1386

— patent publication US10786484B2, “Mono- or di-substituted indole derivatives as dengue viral replication inhibitors” (Janssen Pharmaceuticals, Inc., priority 2015, dated 2020)
